Test system: SARS-CoV-2
Test: Phase 2/3 study, Phase 2a Part: SARS-CoV-2 virus titer
Format: in vivo, human
Conditions: 750/250 mg group and 375/125 mg group

`Cn1cnc(Cn2c(=O)[nH]/c(=N\c3cc4cn(C)nc4cc3Cl)n(Cc3cc(F)c(F)cc3F)c2=O)n1` [(6E)-6-[(6-chloro-2-methyl-2H-indazol-5-yl)imino]-3-[(1-methyl-1H-1,2,4-triazol-3-yl)methyl]-1-[(2,4,5-trifluorophenyl)methyl]-1,3,5-triazinane-2,4-dione] was tested, and the “Reduction of time to the first negative SARS-CoV-2 virus titer of 50% of patients vs placebo” value was “about 2 days”.
